Results of unrelated studies side by side (data: NIAID ChemDB).

Shared fields: whole-cell or culture tests; species: Mycobacterium smegmatis

Zones are inhibition diameters on agar. An empty or dashed field is not shown. Conditions beyond the fields shown may differ between rows. MIC50, MIC90 and the like: level of inhibition, or share of isolates inhibited.

structure | read by | strain or isolate | dose | endpoint | result
CC1CN(c2c(F)cc3c(=O)c(C(=O)O)cn(C4CC4)c3c2F)CCN1 | - | KD1990 (GYRA D95A) | - | MIC99 | 0.47 µg/mL
Cc1nn(-c2ccccc2)c2c1C(c1cn(-c3ccccc3)nc1-c1ccc(F)cc1)C1=C(NC(C)(c3cc(O)c(Cl)c(O)c3)NC1=O)O2 | agar diffusion / agar | NCIM 5138 | 1 mg/mL | zone | 11.5 mm
N#CC(C#N)=NNc1cccc(Cl)c1 | - | mc2155 | - | MIC | 30 µg/mL
CCN1CCN(c2c(F)cc3c(=O)c(C(=O)O)cn(C4CC4)c3c2OC)CC1 | - | KD2012 (GYRA G89A) | - | MIC99 | 0.37 µg/mL
CCCN(CCC)C(=O)c1cc(C)cc(C(=O)N[C@H]([C@H](O)CNCc2cccc(I)c2)C(F)(F)c2ccccc2)c1 | agar diffusion | ATCC 19420 | 100 µg/disc | zone | 0 mm
CC(C)N1CCN(c2c(F)cc3c(=O)c(C(=O)O)cn(C4CC4)c3c2F)CC1 | - | KD1998 (GYRA D95N) | - | MIC99 | 6.8 µg/mL
CC[n+]1c(-c2ccccc2)c2cc(N)ccc2c2ccc(N)cc21 | - | MC^2 552 (ciprofloxacin-resistant) | - | MIC | 32 µg/mL
CC1CN(c2c(F)cc3c(=O)c(C(=O)O)cn(C4CC4)c3c2F)CC(C)N1 | - | KD1987 (GYRA A91V) | - | MIC99 | 0.47 µg/mL
O=C(N[C@H]([C@H](O)CNCc1cccc(I)c1)C(F)(F)c1ccccc1)OCc1ccccc1 | agar diffusion | 19420 | 50 µg/disc | zone | 10 mm
C[C@H]1c2cccc(O)c2C(O)=C2C(=O)[C@]3(O)C(O)=C(C(N)=O)C(=O)[C@@H](N(C)C)[C@@H]3[C@@H](O)[C@@H]21 | - | A29663 | - | MIC | 0.13 µg/mL
CCCN(CCC)C(=O)c1cc(C)cc(C(=O)N[C@@H](Cc2cc(F)cc(F)c2)[C@H](O)CNCc2cccc(I)c2)c1 | agar diffusion | ATCC 19420 | 100 µg/disc | zone | 9 mm
COc1ccc(-c2nn(-c3ccccc3)cc2C2C3=C(NC(C)(c4cc(O)ccc4Cl)NC3=O)Oc3c2c(C)nn3-c2ccccc2)cc1 | agar diffusion / agar | NCIM 5138 | 0.5 mg/mL | zone | 4.2 mm
CCC1CN(c2c(F)cc3c(=O)c(C(=O)O)cn(C4CC4)c3c2F)CCN1 | - | KD2008 (GYRA G89C) | - | MIC99 | 0.73 µg/mL
CCCC(=O)O[C@@H](C[C@@]1(C)[C@H](C)CCC(=O)[C@@H]1C)/C(C)=C/Cc1c(O)c(Cl)c(C)c(C=O)c1O | agar diffusion | ATCC 607 | 10 µg/disc | zone | 8 mm
Cc1nn(-c2ccccc2)c2c1C(c1cn(-c3ccccc3)nc1-c1ccc(F)cc1)C1=C(NC(C)(c3cc(O)c(I)cc3Cl)NC1=O)O2 | agar diffusion / agar | NCIM 5138 | 0.5 mg/mL | zone | 9 mm

For reference, 2 entries again:

structure	read by	strain or isolate	dose	endpoint	result
CCCN(CCC)C(=O)c1cc(C)cc(C(=O)N[C@H]([C@H](O)CNCc2cccc(I)c2)C(F)(F)c2ccccc2)c1	agar diffusion	ATCC 19420	100 µg/disc	zone	0 mm
CC1CN(c2c(F)cc3c(=O)c(C(=O)O)cn(C4CC4)c3c2F)CCN1	-	KD1990 (GYRA D95A)	-	MIC99	0.47 µg/mL